Measurements published in US20090324743A1, “PULMONARY DRUG DELIVERY” (UNIVERSITY OF STRATHCLYDE, priority 2008, published 2009).

Tested on: B16 F0 cells
Test: In vivo lung cancer efficacy study, organ weights
Set-up: species or system BALB/c mice
Details: sacrificed day 14
[1] = Table 5, 0.5 mg/ml inhalation 6.5 mins on day 7
[2] = Table 5, 4.44 mg/kg iv (0.2 ml of 0.5 mg/ml) on day 7
[3] = Table 6 Expt 1, inhalation on days 4, 7, 9 and 11, cisplatin solution 0.5 mg/ml, processed cisplatin-NIV as prepared
[4] = Table 6 Expt 2, inhalation day 7 only, 0.1 mg/ml

[NH2][Pt]([NH2])([Cl])[Cl] [Cisplatin solution, cisplatin]
Mean organ weight, Kidney [1]: 0.19 ± 0.04 g | Mean organ weight, Spleen [1]: 0.24 ± 0.01 g | Mean organ weight, Kidney [2]: 0.13 ± 0.01 g | Mean organ weight, Spleen [2]: 0.22 ± 0.01 g | Mean organ weight, Kidney [3]: 0.15 ± 0.01 g | Mean organ weight, Spleen [3]: 0.13 ± 0.01 g | Mean organ weight, Kidney [4]: 0.21 ± 0.01 g | Mean organ weight, Spleen [4]: 0.13 ± 0.01 g
